This is a selection; strong and weak results do not stand in their true shares. Active and inactive are the calls of the source.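 Rule for the calls: active = activation above the mean over all tested compounds plus 3 SD (cut at about 0.9% in these data); inactive = the rest.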
System: Nuclear hormone receptor DAF-12 (Strongyloides stercoralis)
Experiment: S. stercoralis DAF-12 nuclear receptor activators, primary screen, cell-based, luminescence, HEK293, GRIP1 co-expression, lit1-tk-luc (AID 652126);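 note: 0% = DMSO-only wells and 100% = 3 µM delta7-dafachronic acid wells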
Conditions: HEK293 ssDAF-12/GRIP1 lit1-tk-luc reporter, at 6.8 µM, hits give high values, % of 3 µM dafachronic acid response

Row | SMILES | activation
1 | O=C(NCC1(N2CCCCC2)CCCCC1)c1ccco1 | inactive: -0.85%
2 | Cn1c(=O)[nH]cc(N(CCCl)CCCl)c1=O | inactive: -1.13%
3 | CN(C)c1ccc(C(=O)NCC2(N3CCCCC3)CCCCC2)cc1 | inactive: -1.2%
4 | Cc1ccccc1NC1(C#N)CCN(Cc2ccccc2)CC1 | inactive: -0.79%
5 | CC(C)(C)n1nnnc1C(c1ccnc2ccccc12)N1CCC(n2c(=O)[nH]c3ccccc32)CC1 (stereo not given) | inactive: -1.24%
6 | CCN1CCC(Nc2cccc(F)c2)CC1 | inactive: -1.79%
7 | COc1ccc(C(c2nnnn2C2CCCCC2)N2CCC(n3c(=O)[nH]c4ccccc43)CC2)cc1 (stereo not given) | inactive: -1.21%
8 | Cc1ccc(C(=O)NCC2(N3CCCCC3)CCCCC2)o1 | inactive: -0.82%
9 | Fc1ccccc1NC1CCN(Cc2ccccc2)CC1 | inactive: -1.76%
10 | Cc1ccc(NC2(C#N)CCN(Cc3ccccc3)CC2)cc1 | inactive: -0.27%
11 | CC(=O)N(c1ccccc1)C1CCNCC1 | inactive: -0.86%
12 | COc1cccc(C(c2nnnn2C2CCCCC2)N2CCC(n3c(=O)[nH]c4ccccc43)CC2)c1OC (stereo not given) | inactive: -2%
13 | CCC(c1nnnn1C1CCCCC1)N1CCC(n2c(=O)[nH]c3ccccc32)CC1 (stereo not given) | inactive: -1.55%
14 | O=c1[nH]c2ccccc2n1C1CCN(C(c2ccnc3ccccc23)c2nnnn2C2CCCCC2)CC1 (stereo not given) | inactive: -0.81%
15 | COc1cc(OC)cc(C(=O)NCC2(N3CCCCC3)CCCCC2)c1 | inactive: -1.06%
16 | CN1CCC(Nc2ccc(Cl)cc2)CC1 | inactive: -1.4%
17 | COc1cccc(C(=O)N(c2cc(C)cc(C)c2)C2CCN(C(=O)OC(C)(C)C)CC2)c1 | inactive: -1%
18 | COc1cccc(C(c2nnnn2C2CCCC2)N2CCC(n3c(=O)[nH]c4ccccc43)CC2)c1OC (stereo not given) | inactive: -1.45%
19 | COc1cc(OC)cc(C(=O)NCC2(N3CCOCC3)CCCCC2)c1 | inactive: -1.34%
20 | CCC(CO)(C(=O)OC1CN2CCC1CC2)c1ccccc1 (stereo not given) | inactive: -0.11%

Row | SMILES | activation
21 | CC(C)(C)OC(=O)N1CCC(Nc2ccccc2)CC1 | inactive: -1.17%
22 | NN(c1ccccc1)C1CCN(CCc2ccccc2)CC1 | inactive: -1.17%
23 | O=C(O)C1(Nc2ccccc2)CCN(Cc2ccccc2)CC1 | inactive: -0.64%
24 | CCCOc1ccc(C(=O)NCC2(N(C)C)CCCCC2)cc1 | inactive: -0.17%
25 | O=c1[nH]c2ccccc2n1C1CCN(C(c2cc3ccccc3o2)c2nnnn2C2CCCC2)CC1 (stereo not given) | inactive: -1.76%
26 | CCOc1ncccc1C(=O)NCC1(N2CCOCC2)CCCCC1 | inactive: -1.43%
27 | CN1CCC(Nc2ccc(F)c(Cl)c2)CC1 | inactive: -0.69%
28 | O=C(OC1CN2CCC1CC2)C1c2ccccc2C=Cc2ccccc21 (stereo not given) | inactive: -1.49%
29 | O=c1[nH]c2ccccc2n1C1CCN(C(c2cccs2)c2nnnn2C2CCCC2)CC1 (stereo not given) | inactive: -1.3%
30 | CCCCn1nnnc1C(c1cccc(OC)c1OC)N1CCC(n2c(=O)[nH]c3ccccc32)CC1 (stereo not given) | inactive: -1.66%
31 | COc1cccc(C(c2nnnn2C(C)(C)C)N2CCC(n3c(=O)[nH]c4ccccc43)CC2)c1OC (stereo not given) | inactive: -0.64%
32 | CCOC(=O)N1CCC(Nc2ccc(C)cc2)CC1 | inactive: -1.62%
33 | N/C(=N\O)c1c(N)no[n+]1[O-] | inactive: -1.05%
34 | O=c1[nH]c2ccccc2n1C1CCN(C(c2cccs2)c2nnnn2C2CCCCC2)CC1 (stereo not given) | inactive: -1.07%
35 | NC(=O)C1(Nc2ccccc2)CCN(Cc2ccccc2)CC1 | inactive: -1.07%
36 | COc1ccc(C(=O)NCC2(N3CCOCC3)CCCCC2)cc1OC | inactive: -1.34%
37 | O=c1[nH]c2ccccc2n1C1CCN(C(c2ccnc3ccccc23)c2nnnn2C2CCCC2)CC1 (stereo not given) | inactive: -1.07%
38 | CCCCn1nnnc1C(c1ccccc1)N1CCC(n2c(=O)[nH]c3ccccc32)CC1 (stereo not given) | inactive: -1.5%
39 | COc1cc(C(=O)NCC2(N3CCOCC3)CCCCC2)cc(OC)c1C | inactive: -1.43%
40 | O=C(NCC1(N2CCOCC2)CCCCC1)c1cc(Br)ccc1Cl | inactive: -1.43%

Row | SMILES | activation
41 | CC(C)(C)n1nnnc1C(c1cccc2ccccc12)N1CCC(n2c(=O)[nH]c3ccccc32)CC1 (stereo not given) | inactive: -1.35%
42 | CN(C)C1(CNC(=O)c2cccc(C#N)c2)CCCCC1 | inactive: -0.6%
43 | c1ccc(CN2CCC(Nc3ccccc3)CC2)cc1 | inactive: -1.27%
44 | C/C(N)=N\P(=O)(Oc1ccccc1)Oc1ccccc1 | inactive: 0.1%
45 | Cc1cc(N(CCCl)CCCl)ccc1C=O | inactive: -0.98%
46 | CCCN1CCC(Nc2cc(OC)cc(OC)c2)CC1 | inactive: -0.01%
47 | O=c1[nH]c2ccccc2n1C1CCN(C(c2ccccc2)c2nnnn2C2CCCC2)CC1 (stereo not given) | inactive: -1.17%
48 | N#Cc1ccc(C(=O)NCC2(N3CCCCC3)CCCCC2)cc1 | inactive: -1.17%
49 | CC(C)(C)OC(=O)N1CCC(N(C(=O)c2ccccc2)c2ccc(Cl)cc2)CC1 | inactive: -1.19%
50 | O=C(NCC1(N2CCOCC2)CCCCC1)c1cc(=O)[nH]c2ccccc12 | inactive: -0.72%
51 | COc1cc(C(=O)NCC2(N3CCCCC3)CCCCC2)ccc1OC(F)F | inactive: -0.59%
52 | CCCCn1nnnc1C(c1cccc2ccccc12)N1CCC(n2c(=O)[nH]c3ccccc32)CC1 (stereo not given) | inactive: -1.35%
53 | CC(C)c1ccc(C(=O)NCC2(N3CCOCC3)CCCCC2)cc1 | inactive: -1.02%
54 | COc1ccc(NC2CCN(C(=O)OC(C)(C)C)CC2)cc1 | inactive: -2.05%
55 | CN1CCN(CCOC(=O)C(O)(c2ccccc2)c2ccccc2)CC1 | inactive: -1.07%
56 | O=C(NCC1(N2CCCCC2)CCCCC1)c1cccc(C(F)(F)F)c1 | inactive: -0.28%
57 | CCN1CCC(Nc2ccc(Cl)cc2)CC1 | inactive: -1.42%
58 | N#CC1(Nc2ccccc2)CCN(CCc2ccccc2)CC1 | inactive: -1.34%
59 | O=c1[nH]c2ccccc2n1C1CCN(C(c2ccccc2OC(F)(F)F)c2nnnn2C2CCCC2)CC1 (stereo not given) | inactive: -0.84%
60 | CSc1ccc(C(=O)NCC2(N3CCOCC3)CCCCC2)cc1 | inactive: -0.78%
